Compound potency records, mixed from different reports. Data source: NIAID ChemDB in PubChem.

Common to all: tests in culture; organism: HIV-1; read by: p24; read-out: fold resistance

Fold resistance has wild type as its base. Lines come from different laboratories, so protocols vary. Blank or dashed fields: not listed here.

SMILES	cell line	changes	strain	value
Cc1nnc(C[C@H](C[C@H](O)CN2CCN(C(C)(C)c3ncc(-c4ccc(Cl)cc4)o3)C[C@H]2C(=O)NCC(F)(F)F)C(=O)N[C@H]2c3ccccc3OC[C@H]2O)o1	MT-4	PR-L10I N37S R41K M46I I54V I62V L63P A71V V77I V82A L90M I93L	Q-60 Clinical isolate	≤0.032
Cc1cn([C@H]2C[C@H](N=[N+]=[N-])[C@@H](CO)O2)c(=O)[nH]c1=O	PBMC	RT-L74V		1.5
CC(C)(c1ncc(-c2ccc(Cl)cc2)o1)N1CCN(C[C@@H](O)C[C@@H](Cc2nnco2)C(=O)N[C@H]2c3ccccc3OC[C@H]2O)[C@H](C(=O)NCC(F)(F)F)C1	MT-4	PR-L10I M36I N37D M46I R57K L63P A71V G73S I84V L90M I93L	V-18 Clinical isolate	0.504
Nc1ccn([C@H]2CC[C@@H](CO)O2)c(=O)n1	PBMC	RT-T215Y K219Q		1.5
O=C(N[C@H]1c2ccccc2OC[C@H]1O)[C@H](Cc1nnc(-c2ccccc2)o1)C[C@H](O)CN1CCN(Cc2ccc(-c3ccc(Cl)cc3)o2)C[C@H]1C(=O)NCC(F)(F)F	MT-4	PR-L10I N37S R41K M46I I54V I62V L63P A71V V77I V82A L90M I93L	Q-60 Clinical isolate	4
CC(C)c1nc(CN(C)C(=O)N[C@H](C(=O)N[C@@H](Cc2ccccc2)C[C@H](O)[C@H](Cc2ccccc2)NC(=O)OCc2cncs2)C(C)C)cs1	MT-4	PR-M46I I84V	NL4-3-P28 (PR M46I I84V)	18
CC(C)Nc1cccnc1N1CCN(C(=O)c2cc3cc(NS(C)(=O)=O)ccc3[nH]2)CC1	PBMC	RT-Y181C K103N	NRTI resistant (RT Y181C K103N) A17 variant	11100
Cc1cn([C@H]2C=C[C@@H](CO)O2)c(=O)[nH]c1=O	PBMC	RT-V75I F77L Q151M	Recombinant	0.04
CC(=O)c1ccccc1NC(C(N)=O)c1c(Cl)cccc1Cl	MT-4	RT-P236L	DLV-resistant MF (RT-P236L)	0.533
Cc1cn([C@H]2C[C@H](N=[N+]=[N-])[C@@H](CO)O2)c(=O)[nH]c1=O	MT-2	RT-I178L T215Y	NL4-3	1.5
CC(C)CN(C[C@@H](O)[C@H](Cc1ccccc1)NC(=O)[C@H](CC(N)=O)NC(=O)c1ccc2ccccc2n1)C(=O)NC(C)(C)C	MT-4	PR-M46I L63P V82T I84V	NL4-3	7.5
O=c1[nH]cnc2c1ncn2[C@H]1CC[C@@H](CO)O1	MT-4	RT-K65R M184V	HXB2-D (RT K65R M184V)	4.89
CC(C)(C)NC(=O)[C@@H]1C[C@@H]2CCCC[C@@H]2CN1C[C@@H](O)[C@H](Cc1ccccc1)NC(=O)[C@H](CC(N)=O)NC(=O)c1ccc2ccccc2n1	MT-4	PR-M46I L63P V82T I84V	NL4-3	8
CC(C)c1nc(CN(C)C(=O)N[C@H](C(=O)N[C@@H](Cc2ccccc2)C[C@H](O)[C@H](Cc2ccccc2)NC(=O)OCc2cncs2)C(C)C)cs1	PBMC	PR-L10R N37D M46I I62V L63P A71V G73S V77I V82T L90M I93L	Clinical isolate	>23
CC(C)=CCN1Cc2cc(Cl)cc3[nH]c(=S)n(c23)C[C@@H]1C	CEM	RT-M184V	IIIB	0.55
CC(C)OC(=O)OCOP(=O)(CO[C@H](C)Cn1cnc2c(N)ncnc21)OCOC(=O)OC(C)C	MT-2	RT-D67 K70 T215	1391-4 high AZT resistance (RT D67 K70 T215)	0.284
Cc1cn([C@H]2C[C@H](N=[N+]=[N-])[C@@H](CO)O2)c(=O)[nH]c1=O	PBMC		410 clinical isolates AZT-resistant	22
CC(C)(c1ncc(-c2ccc(F)cc2)o1)N1CCN(C[C@@H](O)C[C@@H](Cc2nnco2)C(=O)N[C@H]2c3ccccc3OC[C@H]2O)[C@H](C(=O)NCC(F)(F)F)C1	MT-4	PR-L10I M36I N37D M46I R57K L63P A71V G73S I84V L90M I93L	V-18 Clinical isolate	1
Nc1ccn([C@H]2CC[C@@H](CO)O2)c(=O)n1	PBMC	RT-V75I F77L Q151M	Recombinant	0.06
Cc1occc1C(=S)Nc1ccc(Cl)c(/C=N/OC(C)(C)C)c1	CEM	RT-G190E	IIIB	>40
CC(C)(C)NC(=O)[C@@H]1CN(Cc2cccnc2)CCN1C[C@@H](O)C[C@@H](Cc1ccccc1)C(=O)N[C@H]1c2ccccc2C[C@H]1O	PBMC	PR-L10R N37D M46I I62V L63P A71V G73S V77I V82T L90M I93L	Clinical isolate	42.3
Cc1ccnc2c1NC(=O)c1cccnc1N2C1CC1	PBMC	RT-Y181C	NRTI resistant (RT Y181C) A17	2941
CCCc1nnc(C[C@H](C[C@H](O)CN2CCN(C(C)(C)c3ncc(-c4ccc(Cl)cc4)o3)C[C@H]2C(=O)NCC(F)(F)F)C(=O)N[C@H]2c3ccccc3OC[C@H]2O)o1	MT-4	PR-L10I M36I N37D M46I R57K L63P A71V G73S I84V L90M I93L	V-18 Clinical isolate	≥7.875
CC(C)(C)NC(=O)[C@@H]1C[C@@H]2CCCC[C@@H]2CN1C[C@@H](O)[C@H](Cc1ccccc1)NC(=O)[C@H](CC(N)=O)NC(=O)c1ccc2ccccc2n1	PBMC	PR-L10I I15V K20R M36I M46L I54V K55R I62V L63P K70Q V82A L89M	Clinical isolate	3.7
COc1ccc2c(c1)N(C(=O)OC(C)C)[C@@H](CSC)C(=S)N2	CEM	RT-V106A	IIIB	2
COc1cncc(-c2cnc(C(C)(C)N3CCN(C[C@@H](O)C[C@@H](Cc4nnc(-c5ccccc5)o4)C(=O)N[C@H]4c5ccccc5OC[C@H]4O)[C@H](C(=O)NCC(F)(F)F)C3)o2)c1	MT-4	PR-L10I N37S R41K M46I I54V I62V L63P A71V V77I V82A L90M I93L	Q-60 Clinical isolate	4
Cc1cn([C@@H]2O[C@H](CO[Si](C)(C)C(C)(C)C)C3(OS(=O)(=O)C=C3N)[C@H]2O[Si](C)(C)C(C)(C)C)c(=O)n(C)c1=O	CEM	RT-K103N	IIIB	5.75
Cc1cn([C@H]2C=C[C@@H](CO)O2)c(=O)[nH]c1=O	MT-2	RT-delta67 K103N		7.1
CC(C)(c1ncc(-c2ccc(Cl)cc2)o1)N1CCN(C[C@@H](O)C[C@@H](Cc2nnc(-c3ccccc3)o2)C(=O)N[C@H]2c3ccccc3OC[C@H]2O)[C@H](C(=O)NCC(F)(F)F)C1	MT-4	PR-L10I M36I N37D M46I R57K L63P A71V G73S I84V L90M I93L	V-18 Clinical isolate	≥15.6
O=c1[nH]cnc2c1ncn2[C@H]1CC[C@@H](CO)O1	MT-2	RT-delta67 K103N		3.5
CC(C)Nc1cccnc1N1CCN(C(=O)c2cc3cc(NS(C)(=O)=O)ccc3[nH]2)CC1	PBMC		6 clinical isolates AZT-resistant	1
Nc1ccn([C@@H]2CO[C@H](CO)S2)c(=O)n1	C8166	RT-V106I Y188C	RF	0.4

For reference, 4 entries again:

SMILES,cell line,changes,strain,value
Cc1cn([C@H]2C=C[C@@H](CO)O2)c(=O)[nH]c1=O,PBMC,RT-V75I F77L Q151M,Recombinant,0.04
CC(=O)c1ccccc1NC(C(N)=O)c1c(Cl)cccc1Cl,MT-4,RT-P236L,DLV-resistant MF (RT-P236L),0.533
Cc1cn([C@@H]2O[C@H](CO[Si](C)(C)C(C)(C)C)C3(OS(=O)(=O)C=C3N)[C@H]2O[Si](C)(C)C(C)(C)C)c(=O)n(C)c1=O,CEM,RT-K103N,IIIB,5.75
CC(C)Nc1cccnc1N1CCN(C(=O)c2cc3cc(NS(C)(=O)=O)ccc3[nH]2)CC1,PBMC,RT-Y181C K103N,NRTI resistant (RT Y181C K103N) A17 variant,11100